PubChem BioAssay AID624099 | ICCB-Longwood | 2012

Assay: 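Human genes that papillomavirus E2 requires to repress the HPV18 LCR promoter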 (primary screen)
Cell system: human C33A cervical carcinoma cells (HPV-negative) stably expressing BPV1 E2 and an HPV18 LCR luciferase reporter
Knock-down reagent: siRNA pool against human genes, 40 nM
Duration: 72 h
Measured: 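HPV18 LCR reporter light per well, converted to plate-wise z-scores that exclude control wells, and averaged over triplicate plates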
Scale: mean z-score and z-score: higher = stronger reporter signal, weaker E2 silencing
Rule for the call: 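Mean z ≥ 2 together with z ≥ 2 in two or more of the three replicates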
This is a random part of about 21,000 reagents tested. 497 of them (2.4%) count as active. 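Higher z means weaker E2 silencing; only reporter increases were scored, and knock-downs that hurt cell survival may mask genuine repressor factors.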 Reagents against one gene are numbered here.

| gene symbol | reagent no. | mean z-score | z-score, replicate A | z-score, replicate B | z-score, replicate C | activity call |
| --- | --- | --- | --- | --- | --- | --- |
| PRRG2 (proline rich and Gla domain 2) | 1 | 0.67 | 0.86 | 0.65 | 0.5 | inactive |
| ZNF594 (zinc finger protein 594) | 1 | 1.46 | 1.17 | 1.75 | 1.46 | inactive |
| C8orf82 (chromosome 8 open reading frame 82) | 1 | 0.26 | -0.01 | 0.44 | 0.35 | inactive |
| LINC03043 (long independently transcribed non-coding RNA 3043) | 1 | -0.57 | -0.55 | -0.54 | -0.63 | inactive |
| LINC03043 (long independently transcribed non-coding RNA 3043) | 2 | 0.02 | 0.01 | -0.36 | 0.41 | inactive |
| LOC151154 (retired record) | 1 | 0.21 | 0.05 | 0.75 | -0.17 | inactive |
| KRT8P41 (keratin 8 pseudogene 41) | 1 | 0.15 | -0.22 | 0.51 | 0.15 | inactive |
| ZC3H12D (zinc finger CCCH-type containing 12D) | 1 | -0.72 | -0.9 | -0.54 | -0.71 | inactive |
| SFMBT2 (Scm like with four mbt domains 2) | 1 | -0.9 | -0.83 | -0.84 | -1.01 | inactive |
| GLCE (glucuronic acid epimerase) | 1 | 0.44 | 0.23 | 0.41 | 0.68 | inactive |
| TREML4 (triggering receptor expressed on myeloid cells like 4) | 1 | 1.26 | 1 | 1.31 | 1.47 | inactive |
| ECI1 (enoyl-CoA delta isomerase 1) | 1 | 0.42 | 0.3 | 0.42 | 0.53 | inactive |
| CD6 (CD6 molecule) | 1 | 0.15 | 0.4 | -0.2 | 0.25 | inactive |
| RPL14P1 (ribosomal protein L14 pseudogene 1) | 1 | -5.97 | -6.2 | -6.21 | -5.5 | inactive |
| CTSV (cathepsin V) | 1 | 0.25 | 0.26 | 0.31 | 0.18 | inactive |
| LPIN1 (lipin 1) | 1 | -0.59 | -0.57 | -0.93 | -0.28 | inactive |
| GATAD2A (GATA zinc finger domain containing 2A) | 1 | -1.14 | -1.13 | -1.16 | -1.12 | inactive |
| BTBD19 (BTB domain containing 19) | 1 | 0.35 | -0.15 | 0.82 | 0.38 | inactive |
| PHYHIP (phytanoyl-CoA 2-hydroxylase interacting protein) | 1 | -0.65 | -0.53 | -0.77 | -0.66 | inactive |
| HUNK (hormonally up-regulated Neu-associated kinase) | 1 | -0.3 | -0.16 | -0.77 | 0.03 | inactive |
| EDAR (ectodysplasin A receptor) | 1 | -0.57 | -0.68 | -0.59 | -0.45 | inactive |
| LOC728660 | 1 | -0.33 | -0.4 | -0.27 | -0.33 | inactive |
| PLK1 (polo like kinase 1) | 1 | -0.89 | -1.06 | -0.77 | -0.85 | inactive |
| POTEE (POTE ankyrin domain family member E) | 1 | -0.85 | -0.64 | -0.87 | -1.06 | inactive |
| OR10V1 (olfactory receptor family 10 subfamily V member 1) | 1 | -0.26 | -0.29 | 0 | -0.48 | inactive |
| LOC399917 (retired record) | 1 | 0.51 | 0.72 | 0.48 | 0.34 | inactive |
| SVIL (supervillin) | 1 | -0.63 | -0.79 | -0.44 | -0.65 | inactive |
| CDCA4 (cell division cycle associated 4) | 1 | -0.82 | -0.85 | -0.76 | -0.84 | inactive |
| NKAPL (NFKB activating protein like) | 1 | -0.9 | -0.83 | -0.97 | -1.13 | inactive |
| LINC00239 (long independently transcribed non-coding RNA 239) | 1 | 0.47 | 0.69 | 0.79 | -0.07 | inactive |
| EPHB6 (EPH receptor B6) | 1 | 0.91 | 1.06 | 1.11 | 0.57 | inactive |
| PRRT1 (proline rich transmembrane protein 1) | 1 | 1.03 | 1.11 | 0.73 | 1.24 | inactive |
| DNASE1L1 (deoxyribonuclease 1 like 1) | 1 | 0.23 | -0.17 | 0.29 | 0.57 | inactive |
| FLJ40712 (retired record) | 1 | 0.21 | -0.05 | 0.2 | 0.47 | inactive |
| LY6E (lymphocyte antigen 6 family member E) | 1 | 0.89 | 1.03 | 0.88 | 0.77 | inactive |
| TTC14 (tetratricopeptide repeat domain 14) | 1 | 1.24 | 1.29 | 0.94 | 1.51 | inactive |
| ELF3 (E74 like ETS transcription factor 3) | 1 | 0.21 | 0.59 | 0.35 | -0.32 | inactive |
| CTDSPL (CTD small phosphatase like) | 1 | 0.95 | 0.99 | 0.99 | 0.87 | inactive |
| EEA1 (early endosome antigen 1) | 1 | 0.99 | 1.12 | 1.11 | 0.74 | inactive |
| JAG1 (jagged canonical Notch ligand 1) | 1 | 0.49 | 0.2 | 0.51 | 0.75 | inactive |
| SV2C (synaptic vesicle glycoprotein 2C) | 1 | 2.13 | 2.33 | 1.93 | 2.13 | active |
| CLDND2 (claudin domain containing 2) | 1 | 0.96 | 0.92 | 1.2 | 0.75 | inactive |
| GPR65 (G protein-coupled receptor 65) | 1 | 0.65 | 0.69 | 0.97 | 0.3 | inactive |
| SLC25A1 | 1 | 0.44 | 0.48 | 0.4 | 0.44 | inactive |
| HHCM (Mahlavu hepatocellular carcinoma) | 1 | -0.67 | -0.93 | -0.25 | -0.83 | inactive |
| MMP14 (matrix metallopeptidase 14) | 1 | 1.5 | 0.98 | 2.26 | 1.26 | inactive |
| CDY1B (chromodomain Y-linked 1B) | 1 | -0.61 | -0.89 | -0.31 | -0.62 | inactive |
| HTR3A (5-hydroxytryptamine receptor 3A) | 1 | -0.06 | 0 | 0.06 | -0.23 | inactive |
| TREML1 (triggering receptor expressed on myeloid cells like 1) | 1 | -1.3 | -0.76 | -1.25 | -1.89 | inactive |
| PDIA5 (protein disulfide isomerase family A member 5) | 1 | -1.97 | -2.15 | -2.07 | -1.69 | inactive |
| GNE | 1 | -0.52 | -0.66 | 0.07 | -0.97 | inactive |
| LOC388887 (retired record) | 1 | -0.1 | -0.09 | -0.13 | -0.09 | inactive |
| ZEB2 (zinc finger E-box binding homeobox 2) | 1 | -1.06 | -1.08 | -1.01 | -1.09 | inactive |
| LOC392563 (retired record) | 1 | -0.55 | -0.64 | -0.76 | -0.26 | inactive |
| ATP6V1G1 (ATPase H+ transporting V1 subunit G1) | 1 | 0.47 | 0.2 | 0.46 | 0.74 | inactive |
| MLYCD (malonyl-CoA decarboxylase) | 1 | 0.57 | 0.19 | 0.78 | 0.75 | inactive |
| LTF (lactotransferrin) | 1 | -1.41 | -1.31 | -1.29 | -1.63 | inactive |

Entries listed so far whose gene name starts with T or t:
| gene symbol | reagent no. | mean z-score | z-score, replicate A | z-score, replicate B | z-score, replicate C | activity call |
| --- | --- | --- | --- | --- | --- | --- |
| TREML4 (triggering receptor expressed on myeloid cells like 4) | 1 | 1.26 | 1 | 1.31 | 1.47 | inactive |
| TTC14 (tetratricopeptide repeat domain 14) | 1 | 1.24 | 1.29 | 0.94 | 1.51 | inactive |
| TREML1 (triggering receptor expressed on myeloid cells like 1) | 1 | -1.3 | -0.76 | -1.25 | -1.89 | inactive |
